# Experimental data reported in patent US20210346339A1, “THERAPEUTIC FLAVONOID BASED ANTIVIRAL AGENTS” (priority 2016, published 2021).
# Test system: cell culture-derived HCV (HCVcc)
# Conditions: HCVcc in Huh-7.5 cells, 72 hr; test concentration 100 μg/mL
structure (smiles),measurement,value
COc1cc(O)c2c(=O)c(OC)c(-c3ccc(O)c(O)c3)oc2c1,EC50,1.37 mg/L
